Measured values from patent US20070009537A1, “Antimicrobial activity of antibodies producing reactive oxygen species” (priority 2002, published 2007).

Assay: Oxidation of indigo carmine 1 and 18O incorporation into cyclic α-ketoamide 2 by reactive oxygen species
Conditions: for Reaction to form 2: indigo carmine 1 (1 mM) in PB pH 7.4, room temperature, oxidant conditions per footnotes

SMILES	Reaction to form 2	18O incorporation into 2 (PB 100 mM pH 7.4 with H2 18O (>95%), negative ion ESI-MS)
OO [Clone H2O2, hydrogen peroxide]	No	
OCl [HOC1, Hypochlorous acid]	No	
O=O [^1O2*, singlet oxygen]	Yes	no
